What all share (type): in vivo
Data set [1] deals with Meloidogyne graminicola. Briefly: Meloidogyne graminicola infection in rice, first experiment (Example 3). The settings on record: infected rice; 100 μM; harvested twelve days after infection; median (IQR); n = 8. The procedure: (§1) Seeds were germinated on wet tissue paper at 30° C. in the dark for three days, followed by transfer to individual PVC tubes (for nematode infection) containing SAP (Reversat et al., 1999). SAP (sand-absorbent polymer) is a mixture of fine silica sand and ultra-absorbent acrylic copolymer (DCM AquaPerla, DSM, Grobbendonk, Belgium) in a ratio of 1 kg sand to 1.5 g of dry copolymer.
(§2) Before use, each tube was washed in soapy water and dried in an oven at 70° C. for two days. […] The first two days after transfer, the tubes were covered with a polyethylene film (Saran Film, Dow Chemicals, Midland, USA) to prevent excessive evaporation. Seedlings were watered three times per week with 8 ml of Hoagland solution (Hoagland, 1938).
M. graminicola was extracted from infected Echinocloa crus-galli roots grown in potting soil at 25° C. Roots were washed until most soil was removed, after which they were cut into short fragments (with special care taken to cut open any outwardly visible galls). The cut material was put in […] pore diameter sieves which were put into a tap water bath at room temperature for three days. The water was then poured over a […] mesh sieve. The sieve surface was washed with approximately 50 ml of non-demineralized water, which was collected into a beaker before it could seep through the sieve.
The number of nematodes in five 100 μl samples taken from the nematode suspension was counted under a stereo microscope and averaged to determine inoculum concentration. Each plant (grown per the protocol outlined in the previous section) was then inoculated by injecting the desired number of nematodes in the SAP surrounding the root system using a micro-pipette.
(§3) Infection experiments with M. graminicola were performed by inoculating host plants 14 days after transfer to SAP by introducing the desired amount of J2 juveniles next to the root system using a micro pipette. Rice plants (cv. Nipponbare or Kitaake) were inoculated with 250 J2 juveniles per plant; wheat plants (cv. Sahara) were inoculated with 600 J2 juveniles per plant. Plants were harvested 14 days after inoculation. At this point, the plants were phenotyped by measuring the shoot and root length with a ruler, counting the number of adventitious roots and in some experiments by measuring leaf area using the EasyLeafArea software (Easlon and Bloom, 2014) and by determining shoot dry mass after 72 hours of drying in an oven at 70° C. Root systems were then stained in acid fuchsine as described in (Byrd et al., 1983) and left to destain in glycerol with 1 ml/l fuming HCl added for approximately ten days. The number of galls and nematodes was then counted using a binocular microscope.
Rice plants were germinated for three days, transferred to SAP and grown for twelve days. After twelve days, 240 M. graminicola J2 nematodes on average were added to each plant. Plants were harvested twelve days after infection and roots were stained with acid fuchsine to visualize galls and nematodes.

The test system of data set [2] is Meloidogyne graminicola. Nature of the data set: Meloidogyne graminicola infection in rice, second experiment (Example 4). The settings on record: infected rice; 100 μM; ratio of cell wall mass to total dry mass; median (IQR). The protocol: as §1, §2
M. graminicola was extracted from infected Echinocloa crus-galli roots grown in potting soil at 25° C. […]
The number of nematodes in five 100 μl samples taken from the nematode suspension was counted under a stereo microscope and averaged to determine inoculum concentration. […]
Infection experiments with M. graminicola were performed by inoculating host plants 14 days after transfer to SAP by introducing the desired amount of J2 juveniles next to the root system using a micro pipette. […] The number of galls and nematodes was then counted using a binocular microscope. […]

The test system of a further data set is Pratylenchus penetrans. Nature of the data set: Pratylenchus penetrans infection in wheat cv. Sahara (Example 10). The settings on record: infected wheat; PA foliar spray; mean ± SD; n = 8. The procedure:
For Examples 1, 5 and 10, seeds of the winter wheat cultivar Sahara (Aveve Agrarisch, Landen, Belgium) were used. Seeds were washed in a 10% ethanol solution to remove any residual traces of fungicide and then germinated on wet paper at room temperature for four days; seeds were transferred to SAP tubes and placed in a growth chamber (25° C., 16 hours per day of light). Plants were watered with 8 ml of half-strength Hoagland solution every two days for the first ten days and with 8 ml of full strength Hoagland solution every two days afterwards.
A pure culture of P. penetrans grown on carrot disks was kindly provided by Giuseppi Lucarelli (Horto Service, Noicattaro, Italy). […]
Infection experiments with P. penetrans were performed by inoculating host plants 14 days after transfer to SAP by introducing 500 nematodes to their root system using a micro pipette. […] Lesions were counted manually using a magnifying glass after washing and spreading open the root system. Nematodes were counted by macerating the root systems with a kitchen blender, placing a root system in 30 ml of autoclaved tap water for 24 hours and finally counting the number of nematodes in four 500 μl aliquots from each 30 ml root suspension under a binocular microscope.

Data set [3] concerns Meloidogyne graminicola. Briefly: Application regimens of PA, rice - Meloidogyne graminicola (Example 8). The protocol:
Seed coatings were applied by dipping seeds in a coating solution containing 20 g/I high viscosity carboxymethylcellulose (Sigma-Aldrich, Saint Louis, USA) in distilled water as well as 300 μM of the target compound. Seeds were then dried overnight at room temperature.
as §3
Four application regimes for PA on the rice-Meloidogyne graminicola interaction were compared: a seed coating treatment, a single high-dose foliar spray prior to infection, a single high-dose foliar spray after infection and repeated lower-dose foliar sprays throughout the growing period.
One hundred rice seeds (cv. Nipponbare) were randomly divided into five groups of twenty seeds: a control group, seeds that were coated with carboxymethylcellulose containing 300 μM PA (PA coating), a group that would be foliarly sprayed with 100 μM PA solution three times per week (PA continuous), a group that would be sprayed once with a 300 μM PA solution one day prior to nematode inoculation (PA−1 dpi) and a group that would be sprayed once with a 300 μM PA solution seven days after nematode inoculation (PA+7 dpi).
The experiment was carried out as per the materials and methods described in Materials and Methods, sections Oryza sativa (rice) and Meloidogyne graminicola culture.

A further data set has as its system Heterodera schachtii. Briefly: Heterodera schachtii infection in sugar beet (Example 9). The settings on record: infected sugar beet; 10 μM PA; mean ± SD; n = 8. The protocol:
Sugar beet seeds (cultivar Jolgeh) were germinated for five days at 25° C. on sterile potting soil saturated with distilled water. Seedlings were transferred to SAP tubes, which were placed in a growth chamber at 24° C. (16h per day of fluorescent lighting). The first two days after transfer, the tubes were covered with a polyethylene film (Saran Film, Dow Chemicals, Midland, USA) to prevent excessive evaporation. Seedlings were watered three times per week with 8 ml of Hoagland solution.
Cysts were collected from sugar beets (cv. Jolgeh) kept in a growing chamber at 21° C. through a flotation protocol. Plant roots and their surrounding soil were placed in a water bath at room temperature and gently agitated, followed by decanting and sieving to allow collection of cysts. Cysts were are-dried for two days and stored until use.
Hatching of cysts was induced by exposing them to a zinc chloride solution (3 mM in distilled water) at 25° C. for three days. Five 100 μl samples were taken from this suspension. The number of J2 juveniles in each sample was counted and the results were averaged. […]
Infection experiments with H. schachtii were performed by inoculating host plants 14 days after transfer to SAP by introducing 250 J2 juveniles to their root system using a micro pipette. […] Cysts were collected through a sucrose flotation protocol and then counted and microscopically assessed for maturity. […]

Setting [4] is: PA +7 dpi: sprayed once with 300 μM PA seven days after inoculation, n = 8.
Where [5] appears, read: PA coating: seeds coated with carboxymethylcellulose solution containing 300 μM PA, n = 7.
Setting [6] is: PA continuous: sprayed three times a week with 100 μM PA, n = 9.
Setting [7] is: PA −1 dpi: sprayed once with 300 μM PA one day before inoculation, n = 8.

Results on 2 molecules are retold here after US11992011B2, “Compounds for controlling plant pathogens” (VIB VZW, priority 2017, dated 2024).

Molecules are shown by their SMILES.

For the molecule `O=C(O)/C=C/c1ccc2c(c1)OCO2` [MDCA, 3,4-methylenedioxycinnamic acid], in the data set on Meloidogyne graminicola [1], the Root length is given as 18.0 (IQR = 2.7) cm, the Root number is listed as 13.5 (IQR = 2.0) and the Shoot length is listed as 50.4 (IQR = 2.7) cm. Moreover, in the data set on Meloidogyne graminicola [2], the “Shoot CWR” value is given as 0.65 (IQR = 0.03) %.

With `O=C(O)c1ccc2c(c1)OCO2` [PA, Piperonylic acid], the Root length with Pratylenchus penetrans is recorded as 23.1 ± 5.6 cm; with Meloidogyne graminicola [3] (setting [4]), 12.5 ± 6.8 cm; in the data set on Meloidogyne graminicola [3] (setting [5]), 14.0 ± 5.9 cm; in the data set with Meloidogyne graminicola [3] (setting [6]) it was 11.9 ± 4.1 cm; in the data set with Meloidogyne graminicola [3] (setting [7]), 14.8 ± 5.7 cm; with Meloidogyne graminicola [1], 19.5 (IQR = 2.3) cm. Besides, the Root length in the data set on Heterodera schachtii amounted to 20.4 ± 1.7 cm. For the same molecule, the Shoot dry mass with Pratylenchus penetrans stood at 225.3 ± 24.6 mg. The BBCH stage in the data set with Meloidogyne graminicola [3] (setting [4]) is given as 15.6 ± 0.5; with Meloidogyne graminicola [3] (setting [5]), 15.8 ± 0.5; in the data set with Meloidogyne graminicola [3] (setting [6]) it was 15.6 ± 0.5; in the data set with Meloidogyne graminicola [3] (setting [7]), 15.8 ± 0.7. Moreover, the “Number of AR” value in the data set with Meloidogyne graminicola [3] (setting [4]) is 15.3 ± 7.0; in the data set with Meloidogyne graminicola [3] (setting [5]), 13.3 ± 3.2; in the data set on Meloidogyne graminicola [3] (setting [6]), 13.8 ± 3.3; in the data set on Meloidogyne graminicola [3] (setting [7]), 18.3 ± 5.5. For the same molecule, the Shoot length is 34.3 ± 12.5 cm in the data set with Meloidogyne graminicola [3] (setting [4]); 32.9 ± 9.8 cm in the data set with Meloidogyne graminicola [3] (setting [5]); 32.9 ± 7.2 cm in the data set with Meloidogyne graminicola [3] (setting [6]); 39.0 ± 9.2 cm with Meloidogyne graminicola [3] (setting [7]); 51.3 (IQR = 1.8) cm in the data set with Meloidogyne graminicola [1]; 20.9 ± 3.4 cm with Heterodera schachtii. Moreover, the Root number in the data set on Meloidogyne graminicola [1] is 14.0 (IQR = 1.3). In the data set on Meloidogyne graminicola [2], the “Shoot CWR” value is listed as 0.64 (IQR = 0.03) %.
